Reference: article PMC3435245, “D-Alanylation of Lipoteichoic Acids Confers Resistance to Cationic Peptides in Group B Streptococcus by Increasing the Cell Wall Density” (PLoS Pathogens, 2012)

What was measured:
GBS WT strain = test: NBD-labeled peptide fluorescence change on addition of bacteria (membrane interaction), WT; type: cell-based, Streptococcus agalactiae; details: NBD-labeled peptide 1 µM, NBD fluorescence relative to basal signal of the peptide after addition of bacteria, room temperature; means of triplicate measurements from two independent experiments
GBS dltA mutant = test: NBD-labeled peptide fluorescence change on addition of bacteria (membrane interaction), dltA; type: cell-based, Streptococcus agalactiae; details: NBD-labeled peptide 1 µM
[1] = difference in the signal change between dltA strain to the WT strain

Substance: NBD-LL37: LL37 labeled with NBD at its N-terminus
- Signal change [%], NaCl (16 mM), WT (GBS WT strain): 47.0%
- Signal change [%], NaCl (160 mM), WT (GBS WT strain): −3.4%
- Signal change [%], NaCl (160 mM), dltA (GBS dltA mutant; NBD fluorescence relative to basal signal of the peptide after addition of bacteria, room temperature, means of triplicate measurements from two independent experiments): −3.7%
- Difference in signal change [%], NaCl (16 mM), Δ(dltA-WT) (GBS dltA mutant; [1]): 12.1%
- Difference in signal change [%], NaCl (160 mM), Δ(dltA-WT) (GBS dltA mutant; [1]): −0.3%
